PubChem BioAssay AID1259414 – Drosophila RNAi Screening Center, 2018
Aim: 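Genome-wide screen for host control of endosymbiont load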 (primary screen). Cell system: Drosophila JW18 cells infected with Wolbachia. Reagent: long dsRNA against Drosophila genes, 0.25 µg dsRNA per well of a 384-well plate. Duration: 5 days. Conditions: cells persistently infected with Wolbachia before knock-down; no added drug. Detection: 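Imaged fluorescence in situ signal for Wolbachia 23S rRNA per DAPI-counted host cell, given as a robust z-score within each plate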. Scale: Wolbachia per cell robust z: higher = more Wolbachia per host cell than the plate typical. Hit rule: 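Active if absolute robust z reaches 1.5 in two or more of three replicates, leaving out multi- or no-target dsRNAs, genes unexpressed in JW18 and A1 wells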.
The deposit covers about 24,000 reagents; this is an unselected part of those that have a named target and a result. Over the whole deposit, about 1,210 (5%) are marked active. 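Inactive calls also include excluded dsRNAs with several or no targets, genes unexpressed in JW18, and well A1, regardless of score.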 A number with no mark means an inactive call. A plus sign joins genes that one reagent is predicted to hit. No sequences are given here.

The opening 5 entries as a preview:
predicted target | dsRNA | Wolbachia per cell robust z, rep 1 | Wolbachia per cell robust z, rep 2 | Wolbachia per cell robust z, rep 3
Tmtc4 | DRSC15702 | -0.118 | 1.01 | 1.21
Rbf | DRSC18704 | -1.7 | -0.743 | -0.663
Rbf | DRSC25213 | -0.904 | 0.285 | 0.342
GstT1 | DRSC06243 | -3.7 (active) | 0.351 | -3.04
Rbp9 | DRSC00416 | 0.213 | 0.412 | 0.685

Main list, repeating the preview:
predicted target | dsRNA | Wolbachia per cell robust z, rep 1 | Wolbachia per cell robust z, rep 2 | Wolbachia per cell robust z, rep 3
Tmtc4 | DRSC15702 | -0.118 | 1.01 | 1.21
Rbf | DRSC18704 | -1.7 | -0.743 | -0.663
Rbf | DRSC25213 | -0.904 | 0.285 | 0.342
GstT1 | DRSC06243 | -3.7 (active) | 0.351 | -3.04
Rbp9 | DRSC00416 | 0.213 | 0.412 | 0.685
Rbp9 | DRSC00779 | -0.405 | -0.873 | 0.989
Rbp9 | DRSC29834 | -0.535 | 0.0985 | -0.891
osy | DRSC14903 | 0.369 | 0.324 | -0.29
osy | DRSC15979 | 0.0146 | 0.186 | 0.56
osy | DRSC15981 | -0.775 | -1.78 | 0.387
CG14877 | DRSC15001 | 0.755 | 0.699 | 1.06
CG14877 | DRSC30033 | 1.18 | -0.159 | 0.6
tup | DRSC03627 | -1.08 | 0.792 | -5.09
tup | DRSC23978 | -0.477 | -0.294 | 0.881
CG12420 + CG12817 | DRSC22814 | 0.79 | -0.0366 | -0.795
CG3085 | DRSC04335 | -5.79 | 0.21 | 0.373
lap | DRSC12628 | 0.274 | 0.871 | 0.626
lap | DRSC28215 | 1.04 | 0.0136 | 0.117
Cln3 | DRSC10520 | -0.287 | -5.03 | 0.207
Cln3 | DRSC27270 | 0.205 | 0.0287 | 0.459
Pex3 | DRSC10731 | -0.553 | -0.824 | -3.25
ey | DRSC17173 | -1.08 | 0.746 | 0.201
ey | DRSC26309 | 0.613 | -1.18 | 1.61
CG34303 | DRSC38692 | 0.106 | 1.48 | -0.242
Tsp42Ee | DRSC05947 | -0.673 | 0.45 | -0.719
Tsp42Ee | DRSC29024 | -0.355 | 0.286 | 0.125
stv | DRSC10111 | -0.969 | 0.838 | -1.68
stv | DRSC24419 | 0.337 | 0.129 | -3
meso18E | DRSC20351 | 1.38 | 1.37 | 1.36
meso18E | DRSC25315 | 0.539 | -0.65 | -0.000285
CR42545 | DRSC03709 | -0.48 | -1.21 | -0.0727
Axn | DRSC14120 | 1.83 | 0.357 | 0.0883
Axn | DRSC29423 | 1.88 | -0.489 | -2.05
Trp1 | DRSC03465 | -0.195 | 0.0835 | -0.254
Trp1 | DRSC24685 | -0.317 | -1.33 | -1.43
lncRNA:CR40465 | DRSC37851 | -0.0773 | 0.464 | 0.533
Rep | DRSC07526 | 0.888 | 0.42 | -1.89
PolA1 | DRSC16640 | 1.5 (active) | 0.338 | 1.52
PolA1 | DRSC27879 | 0.0462 | -0.388 | -0.761
CycB | DRSC04605 | -0.171 | -0.108 | 0.3
CycB | DRSC40833 | -1.33 | -0.513 | -0.451
CG34423 + Mthfs | DRSC04088 | -0.0236 | 0.43 | 0.252
CG34105 + CG12491 | DRSC04124 | 0.488 | 0.715 | 0.293
CG34105 + CG12491 | DRSC26465 | -0.61 | -1.35 | -1.36
CG6454 | DRSC16044 | -0.238 | -1.04 | -0.00697
CG6454 | DRSC24613 | 0.336 | -1.26 | -7.12
